Measured values as given in ChEMBL document CHEMBL5537181 (J Med Chem, 2024).

By UniProt entry, the sequences of proteins in these tests, tags left out. Where a name states a change or a piece, a line headed by the entry shows the natural chain unless it says otherwise.
UniProt P30926, whole entry, looked up: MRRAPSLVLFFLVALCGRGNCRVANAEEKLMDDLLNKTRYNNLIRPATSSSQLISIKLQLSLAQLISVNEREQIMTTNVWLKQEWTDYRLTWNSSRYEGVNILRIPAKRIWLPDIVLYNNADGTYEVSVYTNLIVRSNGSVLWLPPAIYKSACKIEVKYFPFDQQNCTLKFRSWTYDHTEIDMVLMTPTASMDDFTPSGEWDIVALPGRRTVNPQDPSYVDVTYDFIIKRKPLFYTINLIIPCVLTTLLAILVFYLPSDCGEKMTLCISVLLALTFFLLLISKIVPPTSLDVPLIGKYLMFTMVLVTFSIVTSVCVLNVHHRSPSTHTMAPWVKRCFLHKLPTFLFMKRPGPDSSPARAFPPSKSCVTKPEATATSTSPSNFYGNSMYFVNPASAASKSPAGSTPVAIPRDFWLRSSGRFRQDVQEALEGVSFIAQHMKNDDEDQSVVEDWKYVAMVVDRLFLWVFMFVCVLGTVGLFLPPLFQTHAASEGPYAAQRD
UniProt P32297, whole entry, looked up: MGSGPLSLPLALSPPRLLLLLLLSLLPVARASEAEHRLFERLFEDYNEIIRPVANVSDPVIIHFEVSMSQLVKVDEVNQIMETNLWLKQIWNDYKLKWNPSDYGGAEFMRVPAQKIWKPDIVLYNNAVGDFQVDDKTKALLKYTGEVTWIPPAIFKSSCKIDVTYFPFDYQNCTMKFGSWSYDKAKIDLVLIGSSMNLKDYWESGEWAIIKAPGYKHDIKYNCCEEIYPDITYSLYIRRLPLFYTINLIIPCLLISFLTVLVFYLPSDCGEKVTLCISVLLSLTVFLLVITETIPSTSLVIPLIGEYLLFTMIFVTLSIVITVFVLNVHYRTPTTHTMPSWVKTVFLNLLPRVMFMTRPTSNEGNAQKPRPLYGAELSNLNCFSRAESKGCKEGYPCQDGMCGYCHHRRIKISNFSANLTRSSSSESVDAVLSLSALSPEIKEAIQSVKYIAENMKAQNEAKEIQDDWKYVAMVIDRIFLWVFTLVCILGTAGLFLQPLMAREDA
UniProt P17787, whole entry, looked up: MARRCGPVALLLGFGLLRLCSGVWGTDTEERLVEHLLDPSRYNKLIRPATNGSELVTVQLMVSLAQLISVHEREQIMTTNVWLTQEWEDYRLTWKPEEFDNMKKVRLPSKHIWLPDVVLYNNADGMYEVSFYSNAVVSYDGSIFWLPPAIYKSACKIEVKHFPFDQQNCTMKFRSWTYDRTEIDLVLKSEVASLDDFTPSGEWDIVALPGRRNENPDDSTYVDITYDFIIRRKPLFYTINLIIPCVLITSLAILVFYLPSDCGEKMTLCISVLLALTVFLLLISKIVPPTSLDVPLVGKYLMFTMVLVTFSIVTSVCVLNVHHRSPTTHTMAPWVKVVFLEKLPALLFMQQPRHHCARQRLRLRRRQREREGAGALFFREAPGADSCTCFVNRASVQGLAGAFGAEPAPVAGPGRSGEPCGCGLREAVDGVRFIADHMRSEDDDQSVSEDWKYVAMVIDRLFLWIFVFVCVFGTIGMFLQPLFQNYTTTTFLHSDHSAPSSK
UniProt P43681: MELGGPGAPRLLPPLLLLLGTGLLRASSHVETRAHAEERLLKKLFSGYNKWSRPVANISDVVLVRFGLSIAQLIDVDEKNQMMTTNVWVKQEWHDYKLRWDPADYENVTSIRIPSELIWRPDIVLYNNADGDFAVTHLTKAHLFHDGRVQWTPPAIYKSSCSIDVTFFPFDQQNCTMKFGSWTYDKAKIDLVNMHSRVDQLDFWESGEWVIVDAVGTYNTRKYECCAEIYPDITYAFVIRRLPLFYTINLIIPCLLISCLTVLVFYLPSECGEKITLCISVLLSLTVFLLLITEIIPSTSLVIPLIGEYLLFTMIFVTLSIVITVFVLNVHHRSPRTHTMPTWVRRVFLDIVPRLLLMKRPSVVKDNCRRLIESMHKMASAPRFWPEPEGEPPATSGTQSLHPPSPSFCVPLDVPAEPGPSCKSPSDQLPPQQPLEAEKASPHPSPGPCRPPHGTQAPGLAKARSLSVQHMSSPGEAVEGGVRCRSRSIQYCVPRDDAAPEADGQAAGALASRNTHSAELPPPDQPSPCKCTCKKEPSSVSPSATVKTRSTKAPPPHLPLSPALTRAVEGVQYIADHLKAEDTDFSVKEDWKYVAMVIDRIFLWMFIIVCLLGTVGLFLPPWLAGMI

Assays:
[1] = biological target: T1, Neuronal acetylcholine receptor; alpha3/beta4 (Homo sapiens) (UniProt P30926+P32297); assay: Antagonist activity at human alpha3beta4 nAChR expressed in acetylcholine-induced Xenopus laevis oocytes assessed as inhibition of acetylcholine-induced current at 100 nM by two electrode voltage-clamp assay relative to control; conditions: Oocyte
Oocyte [2] = assay: Antagonist activity at rat alpha1beta1deltagamma nAChR expressed in acetylcholine-induced Xenopus laevis oocytes assessed as inhibition of acetylcholine-induced current at 100 nM by two electrode voltage-clamp assay
[3] = biological target: T1, Neuronal acetylcholine receptor; alpha3/beta4 (Homo sapiens); assay: Antagonist activity at human alpha3beta4 nAChR expressed in acetylcholine-induced Xenopus laevis oocytes assessed as inhibition of acetylcholine-induced current at 30 nM by two electrode voltage-clamp assay relative to control; conditions: Oocyte
Oocyte [4] = assay: Antagonist activity at human alpha1beta1epsilondelta nAChR expressed in acetylcholine-induced Xenopus laevis oocytes assessed as inhibition of acetylcholine-induced current at 30 nM by two electrode voltage-clamp assay relative to control
[5] = biological target: T2, Neuronal acetylcholine receptor; alpha4/beta2 (Homo sapiens) (UniProt P17787+P43681); assay: Antagonist activity at human alpha4beta2 nAChR expressed in acetylcholine-induced Xenopus laevis oocytes assessed as inhibition of acetylcholine-induced current at 30 nM by two electrode voltage-clamp assay relative to control; conditions: Oocyte
Oocyte [6] = assay: Antagonist activity at human alpha1beta1deltagamma nAChR expressed in acetylcholine-induced Xenopus laevis oocytes assessed as inhibition of acetylcholine-induced current at 30 nM by two electrode voltage-clamp assay relative to control
[7] = biological target: T2, Neuronal acetylcholine receptor; alpha4/beta2 (Homo sapiens); assay: Antagonist activity at human alpha4beta2 nAChR expressed in acetylcholine-induced Xenopus laevis oocytes assessed as inhibition of acetylcholine-induced current at 100 nM by two electrode voltage-clamp assay relative to control; conditions: Oocyte
Oocyte [8] = assay: Antagonist activity at rat alpha1beta1epsilondelta nAChR expressed in acetylcholine-induced Xenopus laevis oocytes assessed as inhibition of acetylcholine-induced current at 100 nM by two electrode voltage-clamp assay
Oocyte [9] = assay: Antagonist activity at human alpha1beta1epsilondelta nAChR expressed in acetylcholine-induced Xenopus laevis oocytes assessed as inhibition of acetylcholine-induced current at 100 nM by two electrode voltage-clamp assay relative to control
Oocyte [10] = assay: Antagonist activity at human alpha1beta1deltagamma nAChR expressed in acetylcholine-induced Xenopus laevis oocytes assessed as inhibition of acetylcholine-induced current at 100 nM by two electrode voltage-clamp assay relative to control

For CC[C@H](C)[C@H](NC(=O)[C@H](CCCNC(=N)N)NC(=O)[C@H](CCCNC(=N)N)NC(=O)[C@H](Cc1ccc(O)cc1)NC(=O)[C@H](CCCNC(=N)N)NC(=O)[C@H](CCCNC(=N)N)NC(=O)[C@H](CCCNC(=N)N)NC(=O)[C@H](CCCNC(=N)N)NC(=O)[C@H](CC(=O)O)NC(=O)[C@H](Cc1ccc(O)cc1)NC(=O)[C@@H]1CCCN1C(=O)[C@H](CO)NC(=O)[C@H](CCCNC(=N)N)NC(=O)[C@H](Cc1ccc(O)cc1)NC(=O)[C@H](CCCNC(=N)N)NC(=O)CN)C(=O)N[C@H](C(=O)N[C@@H](CC(=O)O)C(N)=O)[C@@H](C)O, the inhibition [1] was < 5%, the inhibition (Oocyte [2]) was “inactive” and the inhibition [3] was < 5%. For the same molecule, the inhibition (Oocyte [4]) was < 5%, the inhibition [5] was < 5% and the inhibition (Oocyte [6]) was < 5%. The inhibition [7] was < 5%, the inhibition (Oocyte [8]) was “inactive” and the inhibition (Oocyte [9]) was < 5%. For the same molecule, the inhibition (Oocyte [10]) was < 5%.

Active and inactive are the calls of the source. No cut-off for these calls is given here.
